The numbers were not newly measured in patent US8784929B2 (priority 2007, dated 2014), which cites them from elsewhere.

This data set deals with αHL-M113F-D8 (Staphylococcus aureus, UniProt P09616, G156S/I168L/K34A/M139F/N165Q/V150L). The note with it: cited from earlier work.

With β-cyclodextrin, the “binding of β-cyclodextrin (in words)” value is “binds β-cyclodextrin strongly”. For the same substance, where the note is “voltage-dependent”, the mean dwell time entry was “approximately 10 seconds”.
